Article PMC5680308, “Binding of mycotoxins to proteins involved in neuronal plasticity: a combined in silico/wet investigation” (Scientific Reports, 2017)

Amino acid sequences for entries named in this document (tags omitted). Residues count along the entry.
UniProt Q8N0W4, 42-676 limits assumed: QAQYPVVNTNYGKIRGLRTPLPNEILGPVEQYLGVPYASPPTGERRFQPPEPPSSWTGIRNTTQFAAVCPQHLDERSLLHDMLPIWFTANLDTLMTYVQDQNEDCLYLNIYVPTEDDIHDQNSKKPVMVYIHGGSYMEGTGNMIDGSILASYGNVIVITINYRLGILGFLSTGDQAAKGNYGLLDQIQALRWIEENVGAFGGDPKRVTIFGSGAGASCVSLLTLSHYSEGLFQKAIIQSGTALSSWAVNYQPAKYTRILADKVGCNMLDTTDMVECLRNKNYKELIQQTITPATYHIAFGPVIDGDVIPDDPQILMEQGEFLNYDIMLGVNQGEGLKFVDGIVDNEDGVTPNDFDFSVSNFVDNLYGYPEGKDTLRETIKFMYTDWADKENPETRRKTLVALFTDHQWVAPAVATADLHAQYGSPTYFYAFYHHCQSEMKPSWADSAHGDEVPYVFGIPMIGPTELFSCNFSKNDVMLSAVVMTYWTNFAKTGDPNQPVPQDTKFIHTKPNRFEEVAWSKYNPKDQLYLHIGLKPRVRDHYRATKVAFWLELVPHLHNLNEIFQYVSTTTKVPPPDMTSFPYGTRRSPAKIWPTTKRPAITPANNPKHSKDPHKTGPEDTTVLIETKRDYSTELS

Biological target: Human recombinant neuroligin 4-X linked (NLGN4X) (Homo sapiens, UniProt Q8N0W4)
Test: Fluorescence steady-state binding experiments (intrinsic Trp fluorescence)
Conditions: read-out: dissociation constant (kD); Trp fluorescence emission variation, PBS buffer pH 7.4, 25 °C, non-linear regression

Question: Which Kd does the source give for `CC1=C[C@H]2O[C@@H]3[C@H](O)C[C@](C)([C@@]2(CO)[C@H](O)C1=O)[C@]31CO1` [Deoxynivalenol, deoxynivalenol] here?
Answer: Its Kd is 665 nM.
